{"source": "PubChem BioAssay AID1259414 (Drosophila RNAi Screening Center, 2018)", "aim": "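Genome-wide screen for host control of endosymbiont load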 (primary screen)", "system": "Drosophila JW18 cells infected with Wolbachia", "knock-down reagent": "long dsRNA against Drosophila genes, 0.25 µg dsRNA per well of a 384-well plate", "duration": "5 days", "challenge": "cells persistently infected with Wolbachia before knock-down; no added drug", "detection": "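Automated imaging of bacterial rRNA staining divided by host cell count, reported as plate-normalised robust z-score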", "scale": "Wolbachia per cell robust z: higher = more Wolbachia per host cell than the plate typical", "active means": "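Active if absolute robust z reaches 1.5 in two or more of three replicates, leaving out multi- or no-target dsRNAs, genes unexpressed in JW18 and A1 wells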", "note": "The screen tested about 24,000 reagents; below is a random part of those with a known target gene and a result. Of all reagents, about 1,210 (5%) were called active. 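Inactive calls also include excluded dsRNAs with several or no targets, genes unexpressed in JW18, and well A1, regardless of score.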 Entries without a mark were called inactive. Reagent sequences are not shown."}
{"gene":"eEF1delta","dsRNA":"DRSC02790","Wolbachia per cell robust z, rep 1":"-8.6 (active)","Wolbachia per cell robust z, rep 2":0.502,"Wolbachia per cell robust z, rep 3":-3.31}
{"gene":"eEF1delta","dsRNA":"DRSC26084","Wolbachia per cell robust z, rep 1":0.326,"Wolbachia per cell robust z, rep 2":-0.571,"Wolbachia per cell robust z, rep 3":0.413}
{"gene":"Idh3a","dsRNA":"DRSC19446","Wolbachia per cell robust z, rep 1":-0.113,"Wolbachia per cell robust z, rep 2":0.285,"Wolbachia per cell robust z, rep 3":0.429}
{"gene":"Idh3a","dsRNA":"DRSC28303","Wolbachia per cell robust z, rep 1":"-0.719 (active)","Wolbachia per cell robust z, rep 2":-13.6,"Wolbachia per cell robust z, rep 3":-1.92}
{"gene":"Glut1","dsRNA":"DRSC07927","Wolbachia per cell robust z, rep 1":-4.14,"Wolbachia per cell robust z, rep 2":0.311,"Wolbachia per cell robust z, rep 3":0.152}
{"gene":"Glut1","dsRNA":"DRSC08378","Wolbachia per cell robust z, rep 1":0.838,"Wolbachia per cell robust z, rep 2":1.49,"Wolbachia per cell robust z, rep 3":0.675}
{"gene":"Glut1","dsRNA":"DRSC08662","Wolbachia per cell robust z, rep 1":0.459,"Wolbachia per cell robust z, rep 2":0.986,"Wolbachia per cell robust z, rep 3":0.44}
{"gene":"Glut1","dsRNA":"DRSC27241","Wolbachia per cell robust z, rep 1":0.323,"Wolbachia per cell robust z, rep 2":0.831,"Wolbachia per cell robust z, rep 3":0.412}
{"gene":"Glut1","dsRNA":"DRSC39042","Wolbachia per cell robust z, rep 1":0.447,"Wolbachia per cell robust z, rep 2":-2.41,"Wolbachia per cell robust z, rep 3":-0.497}
{"gene":"Glut1","dsRNA":"DRSC41301","Wolbachia per cell robust z, rep 1":-1.7,"Wolbachia per cell robust z, rep 2":0.813,"Wolbachia per cell robust z, rep 3":1.03}
{"gene":"mRpL39","dsRNA":"DRSC10255","Wolbachia per cell robust z, rep 1":0.843,"Wolbachia per cell robust z, rep 2":1.44,"Wolbachia per cell robust z, rep 3":0.826}
{"gene":"CG11668","dsRNA":"DRSC14341","Wolbachia per cell robust z, rep 1":-0.66,"Wolbachia per cell robust z, rep 2":-0.0828,"Wolbachia per cell robust z, rep 3":0.608}
{"gene":"PK1-R","dsRNA":"DRSC16577","Wolbachia per cell robust z, rep 1":-0.357,"Wolbachia per cell robust z, rep 2":-1.84,"Wolbachia per cell robust z, rep 3":-0.587}
{"gene":"CG6923","dsRNA":"DRSC16136","Wolbachia per cell robust z, rep 1":0.888,"Wolbachia per cell robust z, rep 2":0.446,"Wolbachia per cell robust z, rep 3":-0.0891}
{"gene":"CG6923","dsRNA":"DRSC29621","Wolbachia per cell robust z, rep 1":-0.596,"Wolbachia per cell robust z, rep 2":-0.223,"Wolbachia per cell robust z, rep 3":-1.35}
{"gene":"Smyd3","dsRNA":"DRSC17744","Wolbachia per cell robust z, rep 1":-2.13,"Wolbachia per cell robust z, rep 2":-0.164,"Wolbachia per cell robust z, rep 3":-0.368}
{"gene":"Smyd3","dsRNA":"DRSC26723","Wolbachia per cell robust z, rep 1":0.812,"Wolbachia per cell robust z, rep 2":1.19,"Wolbachia per cell robust z, rep 3":-0.11}
{"gene":"Smyd3","dsRNA":"DRSC38965","Wolbachia per cell robust z, rep 1":0.824,"Wolbachia per cell robust z, rep 2":0.0571,"Wolbachia per cell robust z, rep 3":0.512}
{"gene":"stum","dsRNA":"DRSC04268","Wolbachia per cell robust z, rep 1":0.971,"Wolbachia per cell robust z, rep 2":-0.632,"Wolbachia per cell robust z, rep 3":-0.298}
{"gene":"stum","dsRNA":"DRSC04270","Wolbachia per cell robust z, rep 1":-5.94,"Wolbachia per cell robust z, rep 2":-0.716,"Wolbachia per cell robust z, rep 3":-1.22}
{"gene":"Lrr47","dsRNA":"DRSC03365","Wolbachia per cell robust z, rep 1":"1.97 (active)","Wolbachia per cell robust z, rep 2":1.41,"Wolbachia per cell robust z, rep 3":2.48}
{"gene":"rost","dsRNA":"DRSC03603","Wolbachia per cell robust z, rep 1":-8.44,"Wolbachia per cell robust z, rep 2":0.987,"Wolbachia per cell robust z, rep 3":0.426}
{"gene":"rost","dsRNA":"DRSC28296","Wolbachia per cell robust z, rep 1":-0.0676,"Wolbachia per cell robust z, rep 2":-0.388,"Wolbachia per cell robust z, rep 3":-0.158}
{"gene":"rost","dsRNA":"DRSC38966","Wolbachia per cell robust z, rep 1":0.269,"Wolbachia per cell robust z, rep 2":0.0453,"Wolbachia per cell robust z, rep 3":0.688}
{"gene":"B4","dsRNA":"DRSC01868","Wolbachia per cell robust z, rep 1":"-5.51 (active)","Wolbachia per cell robust z, rep 2":-1.46,"Wolbachia per cell robust z, rep 3":-1.61}
{"gene":"B4","dsRNA":"DRSC03175","Wolbachia per cell robust z, rep 1":"1.13 (active)","Wolbachia per cell robust z, rep 2":-4.19,"Wolbachia per cell robust z, rep 3":-1.81}
{"gene":"SsRbeta","dsRNA":"DRSC11290","Wolbachia per cell robust z, rep 1":-0.248,"Wolbachia per cell robust z, rep 2":0.13,"Wolbachia per cell robust z, rep 3":-1.13}
{"gene":"CG8314","dsRNA":"DRSC07144","Wolbachia per cell robust z, rep 1":-0.462,"Wolbachia per cell robust z, rep 2":0.507,"Wolbachia per cell robust z, rep 3":-1.04}
{"gene":"CG1791","dsRNA":"DRSC18141","Wolbachia per cell robust z, rep 1":0.608,"Wolbachia per cell robust z, rep 2":-8.1,"Wolbachia per cell robust z, rep 3":1.61}
{"gene":"CG1791","dsRNA":"DRSC29301","Wolbachia per cell robust z, rep 1":-0.348,"Wolbachia per cell robust z, rep 2":0.354,"Wolbachia per cell robust z, rep 3":1.5}

Entries above whose target name begins with B or b:
{"gene":"B4","dsRNA":"DRSC01868","Wolbachia per cell robust z, rep 1":"-5.51 (active)","Wolbachia per cell robust z, rep 2":-1.46,"Wolbachia per cell robust z, rep 3":-1.61}
{"gene":"B4","dsRNA":"DRSC03175","Wolbachia per cell robust z, rep 1":"1.13 (active)","Wolbachia per cell robust z, rep 2":-4.19,"Wolbachia per cell robust z, rep 3":-1.81}
